Data reported in paper doi:10.64898/2025.12.16.694593 (bioRxiv, 2025).

Tests used:
Experiment in all cases: […]
Mtb LigD D162R = Mtb LigD D162R (Mycobacterium tuberculosis, UniProt P9WNV3 1-759, D162R)
Mtb LigD V194D = Mtb LigD V194D (Mycobacterium tuberculosis, UniProt P9WNV3 1-759, V194D)
Mtb LigD R198E = Mtb LigD R198E (Mycobacterium tuberculosis, UniProt P9WNV3 1-759, R198E)
Mtb LigD D522R = Mtb LigD D522R (Mycobacterium tuberculosis, UniProt P9WNV3 1-759, D522R)
Mtb LigD K579E = Mtb LigD K579E (Mycobacterium tuberculosis, UniProt P9WNV3 1-759, K579E)
Mtb LigD L580E = Mtb LigD L580E (Mycobacterium tuberculosis, UniProt P9WNV3 1-759, L580E)

Measured: binding result

B1: His-SNAP-Mtb Ku (natural protein)
chain: MRAIWTGSIAFGLVNVPVKVYSATADHDIRFHQVHAKDNGRIRYKRVCEACGEVVDYRDLARAYESGDGQMVAITDDDIASLPEERSREIEVLEFVPAADVDPMMFDRSYFLEPDSKSSKSYVLLAKTLAETDRMAIVHFTLRNKTRLAALRVKDFGKREVMMVHTLLWPDEIRDPDFPVLDQKVEIKPAELKMAGQVVDSMADDFNPDRYHDTYQEQLQELIDTKLEGGQAFTAEDQPRLLDEPEDVSDLLAKLEASVKARSKANSNVPTPP
binds: all assays above
